Km and kcat data for 1 substance are collected here from article PMC10249356 (Biochemistry, 2023).

Data set [1] relates to C/C(=C\C(=O)O)C(=O)SCCNC(=O)CCNC(=O)[C@H](O)C(C)(C)COP(=O)(O)OP(=O)(O)OC[C@H]1O[C@@H](n2cnc3c(N)ncnc32)[C@H](O)[C@@H]1OP(=O)(O)O. Description: purified protein. The conditions noted are these: 200 mM HEPES pH 7.5, 400 µM NADPH, 30 °C, apparent KM.
The test system of data set [2] is CC(C)(COP(=O)(O)OP(=O)(O)OC[C@H]1O[C@@H](n2cnc3c(N)ncnc32)[C@H](O)[C@@H]1OP(=O)(O)O)[C@@H](O)C(=O)NCCC(=O)NCCSC(=O)CCC(=O)O. Briefly: purified protein. To be noted: 200 mM HEPES pH 7.5, 400 µM NADPH, 30 °C, apparent KM.

The term Km denotes the substrate concentration at which the rate is half of its maximum. As a reminder, the kcat is the number of substrate molecules converted per active site and unit of time at saturation. For the substance “CdSucD (Clostridioides difficile R20291; K79R)”, in data set [1], the Km is 144.3 ± 12.3 µM and the kcat was determined as 0.5 ± 0.02 s⁻¹. Further, in data set [2], the Km worked out at 38.6 ± 7.4 µM and the kcat came out at 7.3 ± 0.51 s⁻¹.
